Anti-infective test results gathered from many reports (values: NIAID ChemDB through PubChem).

Common to all: tests in culture; species: Varicella zoster virus; measure: EC50

An empty or dashed field is not shown. Neighbouring rows are from separate reports. ECn: concentration that inhibits the pathogen or its effect by n%.

compound,strain or isolate,cells,method,result
Nc1ncnc2c1ncn2C[C@@H](CO)OCP(=O)(O)O,YS,,cytopathic effect,0.07 µM
Nc1ncnc2c1ncn2[C@@H]1O[C@H](CO)[C@@H](O)[C@@H]1O,OKA (TK+),HEL,plaque count,8.6 µM
Nc1ncnc2c1ncn2C[C@@H](CO)OCP(=O)(O)O,PCV-resistant/A,HEL,plaque count,0.0035 µg/mL
Nc1cc(OCCOCP(=O)(O)O)nc(N)n1,YS,,cytopathic effect,2.7 µM
Nc1ncnc2c1ncn2CCOCP(=O)(O)O,Oka PMEDAP-resistant,HEL,cytopathic effect,120.4 µM
Nc1nc2c(ncn2[C@@H]2O[C@H](CO)[C@H]2CO)c(=O)[nH]1,07/1 (TK-),HEL,plaque count,3 µM
O=c1[nH]c(=O)n([C@H]2C[C@H](O)[C@@H](COP3(=O)OCc4cc(Cl)ccc4O3)O2)cc1/C=C/Br,OKA,HELF,plaque count,0.008 µg/mL
O=C(O)CP(=O)(O)O,PFA-resistant/A,HEL,plaque count,35.6 µg/mL
O=c1[nH]c(=O)n([C@H]2C[C@H](O)[C@@H](COP3(=O)OCc4ccccc4O3)O2)cc1/C=C/Br,OKA,HELF,plaque count,0.044 µg/mL
O=c1[nH]c(=O)n([C@H]2C[C@H](O)[C@@H](CO)O2)cc1-c1ccc(Cl)s1,YS (TK+),HEL,plaque count,0.17 µM
Nc1ccn(C[C@@H](CO)OCP(=O)(O)O)c(=O)n1,BVDU-resistant,HEL,plaque count,0.054 µg/mL
CC(C)C(=O)O[C@H]1C[C@H](n2cc(/C=C/Br)c(=O)[nH]c2=O)O[C@@H]1COP1(=O)OCc2ccccc2O1,OKA,HELF,plaque count,0.026 µg/mL
Nc1ncc2c(ncn2COC(CO)CO)n1,13 isolates,HEL,plaque count,0.11 µM
Cc1cccc2c1OP(=O)(OC[C@H]1O[C@@H](n3cc(/C=C/Br)c(=O)[nH]c3=O)C[C@@H]1OC(=O)[C@H](N)CC(C)C)OC2,OKA,HELF,plaque count,0.01 µg/mL
Nc1ccn(C[C@H]2COP(=O)(O)CO2)c(=O)n1,07/1 (TK-),HEL,plaque count,1.24 µM
CC(=O)O[C@H]1C[C@H](n2cc(/C=C/Br)c(=O)[nH]c2=O)O[C@@H]1COP1(=O)OCc2cccc(C)c2O1,OKA,HELF,plaque count,0.04 µg/mL
Nc1ncnc2c1ncn2CCOCP(=O)(O)O,OKA,,cytopathic effect,38 µM
Nc1nccc2c1ncn2C[C@@H](CO)OCP(=O)(O)O,13 isolates,HEL,plaque count,0.15 µM
Cc1cccc2c1OP(=O)(OC[C@H]1O[C@@H](n3cc(/C=C/Br)c(=O)[nH]c3=O)C[C@@H]1OC(=O)[C@H](C)N)OC2,OKA,HELF,plaque count,0.039 µg/mL

For reference, 2 entries again:

compound,strain or isolate,cells,method,result
Nc1ncc2c(ncn2COC(CO)CO)n1,13 isolates,HEL,plaque count,0.11 µM
CC(C)C(=O)O[C@H]1C[C@H](n2cc(/C=C/Br)c(=O)[nH]c2=O)O[C@@H]1COP1(=O)OCc2ccccc2O1,OKA,HELF,plaque count,0.026 µg/mL